Results of unrelated studies side by side (data: NIAID ChemDB).

All rows: toxicity to cultured cells; read-out: CC50

Two numbers with a dash give a range or band. Blank or dashed fields: not listed here. CCn: concentration that lowers growth or viability of the cells by n%. Neighbouring rows are from separate reports.

SMILES | read by | cells | result
Oc1c(N=NC(=S)Nc2ccccc2)c2ccccc2n1Cc1ccccc1 | - | RD | >25 µM
CCOC(OCC)C1=NCCc2cc(OC)c(OC)cc21 | - | RAJI | <7.5 µM
Nc1ccn(C[C@@H](CO)OCP(=O)(O)O)c(=O)n1 | - | MKN-28 | 194.8 µg/mL
COC1=CC(=O)c2c(cc(OC)c(C(C)C3=C(O)c4c(O)cc(O)cc4C(=O)C3=O)c2O)C1=O | - | NCI-H187 | 1.39 µg/mL
N=C(N)c1cccc2c1CC/C2=N\N=C(N)N | resazurin | PM1 | >0.4 µM
COc1ccc(-c2c(C)nc(N)nc2C2CCN(C(=O)c3ccc4c(c3)OCO4)CC2)cc1 | - | Jurkat cells (PMA-stimulated) | >5 µM
Cc1ccc(NC(=S)N=Nc2c(O)[nH]c3ccccc23)cc1 | - | hRD | >25 µM
CC[C@@H](O)C1=C[C@@H](n2cnc3c(N)ncnc32)[C@H](O)[C@@H]1O | - | P4 | >206 µM
CC(C)N(c1ccc(N2CCOCC2)cc1)c1ncnc2ccc(-c3cccs3)cc12 | - | HUH 9B | >25 µM
Cc1cccc(C)c1N(CC(=O)Nc1ccc(-c2ncon2)cc1)C(=O)C1CCS(=O)(=O)CC1 | MTT | HEF | >30 µM
CS(=N)(=O)c1ccc(C(=O)NC2CC3(C2)CC(c2nc4cc(Cl)ccc4o2)C3)o1 | absorbance | Primary human hepatocytes | >100 µM
CCCCCSc1nc(N)nc2c1ncn2/C=C1/C[C@@H]1CO | - | MEF | 156 µM
Nc1nc(Cc2ccccc2)cc(C2CCN(C(=O)c3ccc4c(c3)OCO4)CC2)n1 | - | Jurkat cells (PMA-stimulated) | 0.8 µM
O=C(OC(Cc1ccc(O)c(O)c1)C(=O)O)c1cc(-c2ccc(O)c(O)c2)c2cc(O)c(O)cc2c1 | - | HuT-78 | >50 µM
COC1=NC=C[C@@H]2O[C@@H]3SC(OC)=NC=C[C@@H]3O[C@@H]2S1 | sulforhodamine | EL-4 | 65 µg/mL
O=C(O)P(=O)(O)O | - | MA-104 | 10–1000 µM
Cc1cc(C)c(Nc2ccnc(Nc3ccc(C#N)cc3)n2)c(C)c1 | MTT / absorbance | PM1 | 11 µM
OC[C@H]1O[C@@H](n2c(Br)nc3cc(Cl)c(Cl)cc32)[C@H](O)[C@@H]1O | neutral red | HSB-2 | >104 µM
CC(=O)N[C@@H](CC(C)C)C(=O)N[C@@H](CC(C)C)C(=O)N[C@H](C=O)CCCN=C(N)N | - | MRC-C | 50 µg/mL
Br.CN1C=CN(c2cccc(N3C=CN(C)C3)n2)C1 | sulforhodamine / absorbance | PC-3 | >30 µM
Nc1nc(NC2CC2)c2ncn(/C=C3/C[C@@H]3CO)c2n1 | - | CBL | 25.6 µM
Cc1cn([C@@H]2O[C@H](CO[Si](C)(C)C(C)(C)C)C3(O[C@H]3C(N)=O)[C@H]2O[Si](C)(C)C(C)(C)C)c(=O)[nH]c1=O | propidium iodide / flow cytometry | CEM | 5 µM
CCOC(=O)CCCCCOc1cccc(CN(C(=O)c2ccc(-c3cc(F)cc(OC)c3)cc2)C(C)C)c1 | - | BJ | >20 µM
Nc1nccc2c1ncn2[C@@H]1O[C@H](CO)C[C@H]1O | - | PRK/E6SM | 200 µg/mL
CC(C)(C)[Si](C)(C)OC[C@H]1O[C@@H](n2ccc(=O)[nH]c2=O)[C@H](O[Si](C)(C)C(C)(C)C)[C@@]12O[C@H]2C(=O)NN | propidium iodide / flow cytometry | CEM | 10–50 µM
CC1=C(C)[C@@](C)(CO)C[C@H]1n1cnc2c(N)ncnc21 | - | DAVIS | >100 µg/mL
N=C(N)c1cccc(Oc2ccccc2)c1 | - | HUT4-3/SX22-1 | <100 µM
CCOC(=O)CCCCCOc1cccc(CN(C(=O)c2ccc(-c3cccc(F)c3)cc2)C(C)C)c1 | - | HEK 293 | >20 µM
C[C@H](O)C1=C[C@@H](n2cnc3c(N)ncnc32)[C@H](O)[C@@H]1O | - | P4 | >36 µM
CC(=O)Nc1ccc([C@@H](C)N2CCn3nc4c(c3C2=O)CN(C(=O)c2ccc(Br)c(C#N)c2)[C@H](C)C4)cc1 | luminescence | HepG2.117 | >50 µM
CCN(CC)Cc1cnc2c(C(=O)Nc3ccc4nc[nH]c4c3)cnn2c1 | MTT | 293T | >20 µM
COc1cc(Cc2cc(C3CCN(C(=O)c4ccc5c(c4)OCO5)CC3)nc(N)n2)cc(OC)c1 | - | Jurkat cells (PMA-stimulated) | 0.3 µM
CC(CCC(=O)N[C@@H](Cc1ccc(O)cc1)C(=O)O)C1CCC2C3CCC4C[C@H](O)CCC4(C)C3C[C@H](O)C12C | XTT | VK2/E6E7 | 181 µg/mL
CN(C)c1ccc(-c2cn3c(=O)c4ncn([C@H]5C=C[C@@H](CO)C5)c4nc3[nH]2)cc1 | - | PBM | 24 µM
CN[C@@H](CC1=CN=c2c(O)c3c(c(O)c21)=NC=CS3(=O)=O)C(=O)O | - | HEK 293 | >80 µM
O=C(O)CC1CC(=O)Oc2c1ccc(O)c2O | - | HOS | 58 µM
O=C(N=Nc1c(O)[nH]c2ccccc12)Nc1ccccc1 | - | hRD | >25 µM
CCCCOC(=O)C(N)CCSC[C@H]1O[C@@H](n2ccc3c(N)ncnc32)[C@H](O)[C@@H]1O | - | PRK/E6SM | 40 µg/mL
Cc1cn([C@@H]2CC[C@H](COC(=O)CCCCCCCCCCC(=O)OC[C@H]3O[C@@H](n4cc(C)c(=O)[nH]c4=O)C[C@@H]3N=[N+]=[N-])O2)c(=O)[nH]c1=O | - | CBMC | >1 µM
OC[C@H]1O[C@@H](n2cnc3c(/C=C/N4CCSC4)ncnc32)[C@H](O)[C@@H]1O | - | Huh7 (MT-4) | 7 µM
COc1ncc(-c2ccc3ncnc(Nc4ccc(N5CCOCC5)cc4)c3c2)cn1 | - | HUH 9B | >25 µM
O=C(NC1CC2(C1)CC(c1nc3cc(Cl)ccc3o1)C2)c1ccc(S(=O)CC2CC2)o1 | absorbance | Primary human hepatocytes | >10 µM
N#Cc1cccc(S(=O)(=O)N(Cc2c(Cl)cccc2Cl)c2cccc(C(=O)NC3CCC3)c2)c1 | absorbance | NHDF | 29 µM
Oc1[nH]c2ccccc2c1N=NC(=S)N1CCCCC1 | - | hRD | >25 µM
C[C@@H](O)C1=C[C@@H](n2cnc3c(N)ncnc32)[C@H](O)[C@@H]1O | - | P4 | >36 µM
COc1ccc(Cc2cc(C3CCN(C(=O)Cc4ccc(OC)c(OC)c4)CC3)nc(N)n2)cc1 | - | Jurkat cells (PMA-stimulated) | >5 µM
N=C(N)c1cccc(OCc2cccc([N+](=O)[O-])c2)c1 | - | HUT4-3/SX22-1 | <100 µM
Nc1ccn(C[C@@H](CO)OCP(=O)(O)O)c(=O)n1 | - | CBL | >159 µM
C[C@@H]1Cc2nn3c(c2CN1C(=O)c1ccc(Cl)c(C#N)c1)C(=O)N([C@@H](C)c1cccc(NS(C)(=O)=O)c1)CC3 | luminescence | HepG2.117 | 19.7 µM
C=C[C@@H](O)C1=C[C@@H](n2cnc3c(N)ncnc32)[C@H](O)[C@@H]1O | - | P4 | >208 µM
CCCSc1nc(N)nc2c1ncn2/C=C1/C[C@@H]1CO | - | MEF | >343 µM
N=C(N)c1cccc(OCc2ccc(OCc3ccccc3)cc2)c1 | - | HUT4-3/SX22-1 | <100 µM
Nc1ncnc2c([C@@H]3O[C@H](CCl)[C@@H](O)[C@H]3O)[nH]nc12 | - | PRK/E6SM | 400 µg/mL
COc1ccc(Cc2cc(C3CCN(C(=O)c4ccc(Cl)c(Cl)c4)CC3)nc(N)n2)cc1 | - | Jurkat cells (PMA-stimulated) | >5 µM
CCn1c(O)c(N=NC(=S)Nc2ccccc2)c2ccccc21 | - | hRD | >25 µM
COC(=O)[C@@H]1O[C@]12[C@@H](CO[Si](C)(C)C(C)(C)C)O[C@@H](n1ccc(=O)[nH]c1=O)[C@@H]2O[Si](C)(C)C(C)(C)C | propidium iodide / flow cytometry | CEM | 11 µM
Nc1ncnc2c1ncn2[C@@H]1O[C@H](CCl)C[C@H]1O | - | PRK/E6SM | 400 µg/mL
CC(C)(C)OC(=O)NCc1cccc(-c2ccc3ncnc(Nc4ccc(N5CCOCC5)cc4)c3c2)c1 | - | HUH 9B | 10–25 µM
O=C(O)c1ccc(N2C(=O)c3cccc([N+](=O)[O-])c3C2=O)cc1O | visual reading / absorbance | SH-SY5Y | >100 µg/mL
Nc1nc2c(ncn2[C@@H]2C=C[C@H](CO)C2)c(=O)[nH]1 | - | PBM | 7 µM
CCOC(=O)COc1ccc(C=O)cc1 | - | BJ | >20 µM
N=C(N)c1cccc(OCc2ccc(Cl)cc2)c1 | - | HUT4-3/SX22-1 | <100 µM
CC(=O)Nc1ccc([C@@H](C)N2CCn3nc4c(c3C2=O)CN(C(=O)c2ccc(Cl)c(Cl)c2)[C@H](C)C4)cc1 | luminescence | HepG2.117 | >50 µM
Oc1[nH]c2ccc(Br)cc2c1N=NC(=S)Nc1ccccc1 | - | hRD | >25 µM
CNC(=O)c1ccc2ncnc(Nc3ccc(N4CCOCC4)cc3)c2c1 | - | HUH 9B | >25 µM
CC(=O)Nc1ccc([C@H](C)N2CCn3nc4c(c3C2=O)CN(C(=O)c2ccc(Cl)c(C(F)(F)F)c2)[C@H](C)C4)cc1 | luminescence | HepG2.117 | 19.3 µM
CCCCCCCCCCCCCC(=O)OC[C@@H]1C=C[C@H](n2cc(C)c(=O)[nH]c2=O)O1 | - | P4R5 | >200 µM
Cc1cc(CCCOc2c(C)cc(-c3noc(C(F)(F)F)n3)cc2C)on1 | - | OHIO HELA-I | 30 µg/mL
CCCCCCCC(=O)CCCCCC/C=C/[C@H](C(=O)N[C@@H](Cc1ccc(OCC=C(C)C)cc1)C(=O)O)[C@@](O)(CC(=O)O)C(=O)O | - | WST-8 | >50 µM
Cc1cn([C@H]2C=C[C@@H](COC(=O)CCCCCCCCCCCBr)O2)c(=O)[nH]c1=O | - | P4R5 | >200 µM
Nc1nccc2c1ncn2[C@H]1CC[C@@H](CO)O1 | - | PRK/E6SM | 200 µg/mL
COc1cc(Nc2ncnc3ccc(-c4cccs4)cc23)ccc1N1CCOCC1 | - | HUH 9B | >25 µM
COc1ccc(N(Cc2c(Cl)cccc2Cl)S(=O)(=O)c2cccc(C#N)c2)cc1C(=O)O | absorbance | SG-Neo (L+I) | >33 µM
COc1ccc(Cc2cc(C3CCN(C(=O)c4ccc5c(c4)OCO5)CC3)no2)cc1 | - | Jurkat cells (PMA-stimulated) | >5 µM
O=S1(=O)CCN(Cc2ccc(-c3ccc4ncnc(Nc5ccc(N6CCOCC6)cc5)c4c3)o2)CC1 | - | HUH 9B | >25 µM
CC(C)(C)[Si](C)(C)OC[C@H]1O[C@@H](n2ccc(=O)[nH]c2=O)[C@H](O[Si](C)(C)C(C)(C)C)C1(O)[C@H](N=[N+]=[N-])C(N)=O | propidium iodide / flow cytometry | CEM | 20 µM
COc1ccccc1NC(=S)N=Nc1c(O)[nH]c2ccccc12 | - | hRD | >25 µM